Data source: PubChem BioAssay AID624099 (ICCB-Longwood, 2012)
Purpose: 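Knock-downs relieving repression by E2 of an HPV18 LCR luciferase reporter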 (primary screen). Cells: human C33A cervical carcinoma cells (HPV-negative) stably expressing BPV1 E2 and an HPV18 LCR luciferase reporter. Reagent: siRNA pool against human genes, 40 nM. Duration: 72 h. Measurement: 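HPV18 LCR reporter light per well, converted to plate-wise z-scores that exclude control wells, and averaged over triplicate plates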. Reading the numbers: mean z-score and z-score: higher = stronger reporter signal, weaker E2 silencing. Hit rule: 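Mean z ≥ 2 together with z ≥ 2 in two or more of the three replicates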.
The whole screen tested about 21,000 reagents; this is a random part of them. Over the whole deposit, 497 (2.4%) are marked active. 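Higher z means weaker E2 silencing; only reporter increases were scored, and knock-downs that hurt cell survival may mask genuine repressor factors.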

What did the screen give for PPIP5K1?
mean z-score: 0.75; z-score, replicate A: 0.98; z-score, replicate B: 0.56; z-score, replicate C: 0.72; call: inactive

How did the screen score CHGA?
mean z-score: -0.61; z-score, replicate A: -0.81; z-score, replicate B: -0.55; z-score, replicate C: -0.48; call: inactive

With H2BC5, what was measured?
mean z-score: 0.72; z-score, replicate A: 0.74; z-score, replicate B: 0.57; z-score, replicate C: 0.85; call: inactive

What did the screen give for GK2?
mean z-score: 1.53; z-score, replicate A: 1.74; z-score, replicate B: 1.37; z-score, replicate C: 1.49; call: inactive

2 entries already listed, sorted by “z-score, replicate A”, lowest first.
H2BC5 — mean z-score = 0.72; z-score, replicate A = 0.74; z-score, replicate B = 0.57; z-score, replicate C = 0.85; call = inactive
GK2 — mean z-score = 1.53; z-score, replicate A = 1.74; z-score, replicate B = 1.37; z-score, replicate C = 1.49; call = inactive

Further entries follow:
For CBLN2, what does the deposit list?
mean z-score: 0.01; z-score, replicate A: -0.72; z-score, replicate B: 0.64; z-score, replicate C: 0.1; call: inactive

What did the screen give for EOGT?
mean z-score: -0.24; z-score, replicate A: -0.41; z-score, replicate B: 0.03; z-score, replicate C: -0.34; call: inactive

How did the screen score C2orf68?
mean z-score: 2.14; z-score, replicate A: 1.96; z-score, replicate B: 1.89; z-score, replicate C: 2.56; call: inactive

For SLC25A13, what does the deposit list?
mean z-score: 0.33; z-score, replicate A: 0.59; z-score, replicate B: 0.12; z-score, replicate C: 0.27; call: inactive

With PTTG1IP, what was measured?
mean z-score: 1.03; z-score, replicate A: 0.83; z-score, replicate B: 1.06; z-score, replicate C: 1.2; call: inactive

How did the screen score NOX5?
mean z-score: 0.84; z-score, replicate A: 0.65; z-score, replicate B: 0.74; z-score, replicate C: 1.12; call: inactive

With CSAG1, what does the deposit list?
mean z-score: 1.23; z-score, replicate A: 1.05; z-score, replicate B: 1.48; z-score, replicate C: 1.15; call: inactive

What did the screen give for SNAPC2?
mean z-score: -0.19; z-score, replicate A: -0.24; z-score, replicate B: -0.15; z-score, replicate C: -0.18; call: inactive
